Data as given in article PMC5050486 (Scientific Reports, 2016).

Sequences of proteins named here, by UniProt entry; tags and fusion partners are left off. Residues count along the entry.
UniProt P15917, 34-809 limits assumed: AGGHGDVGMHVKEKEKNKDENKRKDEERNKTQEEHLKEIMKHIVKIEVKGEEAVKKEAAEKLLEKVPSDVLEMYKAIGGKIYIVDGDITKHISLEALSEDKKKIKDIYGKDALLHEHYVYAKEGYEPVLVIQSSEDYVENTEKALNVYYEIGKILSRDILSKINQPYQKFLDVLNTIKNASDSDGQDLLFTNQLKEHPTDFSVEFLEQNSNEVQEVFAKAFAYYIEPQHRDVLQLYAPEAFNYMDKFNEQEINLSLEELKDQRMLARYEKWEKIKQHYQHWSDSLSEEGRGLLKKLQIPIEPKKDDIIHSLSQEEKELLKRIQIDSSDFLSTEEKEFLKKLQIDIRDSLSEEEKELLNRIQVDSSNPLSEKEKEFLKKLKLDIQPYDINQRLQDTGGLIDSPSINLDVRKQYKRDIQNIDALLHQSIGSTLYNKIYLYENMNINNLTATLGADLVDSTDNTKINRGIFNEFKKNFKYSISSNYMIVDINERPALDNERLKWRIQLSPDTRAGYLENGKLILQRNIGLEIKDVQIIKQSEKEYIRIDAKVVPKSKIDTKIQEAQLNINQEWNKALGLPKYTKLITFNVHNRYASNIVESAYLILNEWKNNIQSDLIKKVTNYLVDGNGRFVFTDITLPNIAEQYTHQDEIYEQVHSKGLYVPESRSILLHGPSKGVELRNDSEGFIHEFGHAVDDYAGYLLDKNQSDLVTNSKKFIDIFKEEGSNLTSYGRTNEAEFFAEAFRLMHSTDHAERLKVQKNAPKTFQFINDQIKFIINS

Target: anthrax LF (Bacillus anthracis, UniProt P15917)
Assay: biochemical
Conditions: read-out: Percent Inhibition with 33 μM of drug, LF

Molecule `O=C(O)CCc1cc(I)c(Oc2ccc(O)c(I)c2)c(I)c1` [Thyropropic acid] has an inhibition at 33 µM of 77 ± 1.07%.
